We go through one compound from patent US20100029568A1, “TIGHTER-BINDING C-PEPTIDE INHIBITORS OF HIV-1 ENTRY” (priority 2007, published 2010).

The subject of the experiment is HIV-1 Res 4 (SDTV). Format: cell-based. To be noted: Table 2.

Usually IC50 stands for the midpoint of a concentration-inhibition curve. Read a high IC50 as weaker potency. `CC[C@H](C)[C@H](NC(=O)[C@H](CC(C)C)NC(=O)[C@H](CO)NC(=O)[C@H](Cc1c[nH]cn1)NC(=O)[C@@H](NC(=O)[C@H](CC(C)C)NC(=O)[C@H](CO)NC(=O)[C@@H](NC(=O)[C@H](Cc1ccc(O)cc1)NC(=O)[C@H](CCCCN)NC(=O)[C@H](CC(N)=O)NC(=O)[C@@H](NC(=O)[C@H](CCC(=O)O)NC(=O)[C@H](CCCNC(=N)N)NC(=O)[C@H](CC(=O)O)NC(=O)[C@H](Cc1c[nH]c2ccccc12)NC(=O)[C@H](CCC(=O)O)NC(=O)[C@H](CCSC)NC(=O)[C@H](Cc1c[nH]c2ccccc12)NC(=O)[C@@H](NC(=O)[C@@H](NC(=O)[C@H](Cc1c[nH]cn1)NC(=O)CNC(=O)CN)[C@@H](C)O)[C@@H](C)O)[C@@H](C)CC)[C@@H](C)CC)[C@@H](C)CC)C(=O)N[C@@H](CCC(=O)O)C(=O)N[C@@H](CCC(=O)O)C(=O)N[C@@H](CO)C(=O)N[C@@H](CCC(N)=O)C(=O)N[C@@H](CC(N)=O)C(=O)N[C@@H](CCC(N)=O)C(=O)N[C@@H](CCC(N)=O)C(=O)N[C@@H](CCC(=O)O)C(=O)N[C@@H](CCCCN)C(=O)N[C@@H](CC(N)=O)C(=O)N[C@@H](CCC(=O)O)C(=O)N[C@@H](CCC(N)=O)C(=O)N[C@@H](CCC(=O)O)C(=O)N[C@@H](CC(C)C)C(=O)N[C@@H](CC(C)C)C(=O)NCC(=O)NCC(=O)N[C@@H](Cc1c[nH]cn1)C(=O)N[C@@H](Cc1c[nH]cn1)C(=O)N[C@@H](Cc1c[nH]cn1)C(=O)N[C@@H](Cc1c[nH]cn1)C(=O)N[C@@H](Cc1c[nH]cn1)C(=O)N[C@@H](Cc1c[nH]cn1)C(=O)O` [C37-KYI] yielded a 50% inhibitory concentration (IC50) of 600 ± 100 pM.
